Laboratory results from paper PMC5825169 (PLoS Pathogens, 2018).

System: RbmC2 D853A
Details: ITC; D853A point mutant (GFPUV fusion)

OC[C@H]1O[C@H](OC[C@H]2OC(O)[C@@H](O)[C@@H](O[C@H]3O[C@H](CO)[C@@H](O)[C@H](O)[C@@H]3O)[C@@H]2O)[C@@H](O)[C@@H](O)[C@@H]1O (stereo partly drawn) [Mannotriose, 1,3-α-1,6-α-D-mannotriose]
Binding to RbmC2 D853A mutant: lack of binding
